Here are results for two molecules from article PMC9678781 (The Journal of Biological Chemistry, 2022).

The target of experiment [1] is T1, SARS-CoV RBD (aa 319-591; Urbani variant), 8xHis-tagged (SARS-CoV Urbani, UniProt P59594). The settings on record: both partners purified.
Experiment [2] addresses SARS-CoV-2 Spike (Wu-Hu-1 + D614G) expressed on the 293T cell surface (SARS-CoV-2 Wuhan-Hu-1 + D614G, UniProt A0A6H1PJZ3, D614G). The settings on record: one partner purified.
The target in experiment [3] is full-length SARS-CoV Spike (Urbani variant) expressed on the 293T cell surface (SARS-CoV Urbani, UniProt P59594). The note with it: one partner purified.
Experiment [4] deals with T1, SARS-CoV RBD (aa 319-591; Urbani …). Description: flow cytometry on cells. The note with it: one partner purified.

Where two headings read alike, the source gives them in different places.

What is called Kd is the constant that tells how readily two partners part at equilibrium. Low readings indicate a tighter complex, high ones a looser complex. By EC50 is commonly meant the concentration that produces a half-maximal response. Read a high EC50 as weaker potency.

B1: purified His-tagged B9-scFv (scFv)
VH: QVQLRESGPSLVKPSQTLSLTCTASGFSLSDKAVGWVRQAPGKALEWLGGIDTGGSTGYNPGLKSRLSITKDNSKSQISLSVSSVTTEDSATYYCTTVHQRDSCPYDSSHSQYCSYGWSCGVYNCRPAVWYRYGSCGTCDNLFSYVDAWGQGLLVTVSS
VL: QAVLNQPSSVSGSLGQRVSITCSGSSSNVGNGYVSWYQLIPGSAPRTLIYGDTSRASGVPDRFSGSRSGNTATLTISSLQAEDEADYFCASAEDSSSNAVFGSRTTLTVL
Regarding B1, the affinity in experiment [1], expressed as Kd, was 169 ± 22 nM. Moreover, in experiment [2], the binding result was “binds”. The response in experiment [3] was half-maximal at 599 nM (EC50).

B2: B9-scFv displayed on the 293T cell surface (pBovShow) (scFv)
VH: QVQLRESGPSLVKPSQTLSLTCTASGFSLSDKAVGWVRQAPGKALEWLGGIDTGGSTGYNPGLKSRLSITKDNSKSQISLSVSSVTTEDSATYYCTTVHQRDSCPYDSSHSQYCSYGWSCGVYNCRPAVWYRYGSCGTCDNLFSYVDAWGQGLLVTVSS
VL: QAVLNQPSSVSGSLGQRVSITCSGSSSNVGNGYVSWYQLIPGSAPRTLIYGDTSRASGVPDRFSGSRSGNTATLTISSLQAEDEADYFCASAEDSSSNAVFGSRTTLTVL
B2 displayed a Kd in experiment [4] of approximately 181 nM.
